Results of unrelated studies side by side (data: NIAID ChemDB).

Shared fields: growth or infection tests; organism: HIV-1; cells: CEM + CEM-SS; measure: EC50

Neighbouring rows are from separate reports. Blank or dashed fields: not listed here. ECn: concentration that inhibits the pathogen or its effect by n%.

compound	strain or isolate	mutations	method	result
Cc1nc(CCCCCCC(=O)c2ccccc2)n2nc(Cl)ccc12	LAI		RT activity	0.3 µM
COc1cc(CS(=O)(=O)c2cccc[n+]2[O-])ccc1OCc1ccccc1	IIIB		syncytia	>4 µg/mL
C[C@]12CCC3C(CC[C@H]4C[C@@H](CCC=C(c5cc(Cl)c(O)c(C(=O)O)c5)c5cc(Cl)c(O)c(C(=O)O)c5)CC[C@]34C)C1CC[C@@H]2CCC=C(c1cc(Cl)c(O)c(C(=O)O)c1)c1cc(Cl)c(O)c(C(=O)O)c1	RF		cytopathic effect / MTT	1.3 µM
CC1(C)C=Cc2c(O)c(C(=O)c3ccccc3)c3oc(=O)cc(-c4ccccc4)c3c2O1	RF		cytopathic effect	13 µg/mL
CCCCCCCCCCCC(=O)NCC(COP(=O)([O-])OCC[N+](C)(C)C)OCCCCCCCCCC			plaque count / syncytia	0.14 µM
Cc1cc(C)cc(C(=O)c2c(C(C)C)c(=O)[nH]c(=O)n2CC2=CCCC2)c1		RT-K103N	cytopathic effect / XTT	1.6 µM
CC(=O)O[C@@H]1CSSC[C@H]1OC(C)=O	RF		XTT	>200 µM
Nc1ncnc2c1ncn2[C@H]1C[C@H]2OC[C@@H](O)[C@H]2O1				>100 µM
Cc1cn([C@H]2O[C@@H](CO)C[C@H]2O)c(=O)[nH]c1=O			cytopathic effect / MTT	>100 µM
O=S(=O)(Cc1c2ccccc2cc2ccccc12)c1cccc[n+]1[O-]	IIIB		syncytia	>8 µg/mL
O=C(/C=C/c1ccccc1O)c1ccc(O)cc1O	RF		cytopathic effect / XTT	32 µM
CCCCCCC(C)[C@H]1CCC2C3CC[C@H]4C[C@@H](CCC=C(c5cc(Cl)c(O)c(C(=O)O)c5)c5cc(Cl)c(O)c(C(=O)O)c5)CC[C@]4(C)C3CC[C@@]21C	RF		cytopathic effect / MTT	5.1 µM
CCc1c(C)[nH]c(=O)c(N)c1Sc1ccccc1	LAI		RT activity	0.32 µM
N#Cc1cccc(C2SCc3nc4cc5ccccc5cc4n32)c1	RF			>200 µM
Cc1cn([C@H]2C=C[C@@H](CO)O2)c(=O)[nH]c1=O	LAI		RT activity	0.059 µM
CCN1CCCn2c(=S)[nH]c3cc(Br)cc1c32				16.7 µM
Nc1nc2c(ccn2[C@H]2C=C[C@@H](CO)C2)c(=O)[nH]1	LAI		RT activity	15 µM
Nc1nc(N)c2nnn([C@H]3C=CC[C@@H](CO)C3)c2n1	RF		cytopathic effect / XTT	>50 µg/mL
CC(C)=CCOc1cc(NC(=S)c2ccsc2C)ccc1Cl	Isolate NL4-3		cytopathic effect / XTT	0.006 µM
CN1CCN(CC(O)C2OC(C)(C)OC2c2cnn(-c3ccccc3)n2)CC1	IIIB		cytopathic effect / MTS	>100 µM
O=C(O)c1c(F)c(F)c(S)c(F)c1F	RF		cytopathic effect / XTT	125 µM
CN1N=C(N)c2cn([C@@H]3O[C@H](COP(=O)(O)O)[C@@H](O)[C@H]3O)c3ncnc1c23	PM16		cytopathic effect / XTT	0.11 µM
O=S1CC(CO)(CO)CS1	RF		XTT	>200 µM
CSc1cc(-c2ccc(Cl)cc2)s[s+]1	RF		cytopathic effect / XTT	39 µM
COc1c(Cl)cc(C(=CCCCCN(C(=O)C=C(c2cc(Cl)c(OC)c(C(=O)O)c2)c2cc(Cl)c(OC)c(C(=O)O)c2)[C@H]2CC[C@]3(C)C4CC[C@@]5(C)C(CC[C@@H]5C(C)CCCC(C)C)C4CC[C@H]3C2)c2cc(Cl)c(OC)c(C(=O)O)c2)cc1C(=O)O	IIIB		cytopathic effect / MTT	9.9 µM
O[C@@H]1CSSC[C@@H]1O	RF		XTT	>20 µM
Fc1ccccc1C1SCc2nc3cc4ccccc4cc3n21	RF			>200 µM
COc1c(Cl)cc(C(=CCNC(=O)C[C@H]2CC[C@]3(C)C4CC[C@@]5(C)C(CC[C@@H]5CC(=O)NCC=C(c5cc(Cl)c(OC)c(C(=O)O)c5)c5cc(Cl)c(OC)c(C(=O)O)c5)C4CC[C@H]3C2)c2cc(Cl)c(OC)c(C(=O)O)c2)cc1C(=O)O	IIIB		cytopathic effect / MTT	48 µM
Nc1nc(Cl)c2nnn([C@H]3C=CC[C@@H](CO)C3)c2n1	RF		cytopathic effect / XTT	>50 µg/mL
Nc1nc2c(ncn2[C@@H]2C[C@H](O)[C@H](CO)O2)c(=O)[nH]1			cytopathic effect / MTT	>100 µM
Nc1ncnc2c1ccn2[C@H]1C=C[C@@H](CO)C1	LAI		RT activity	3 µM
CC(=O)OCC1(COC(C)=O)CSSC1	RF		XTT	>200 µM
Cc1nc(CCCCCCC(=O)c2ccccc2)n2nc(NCCCCCCCCNCc3cn([C@H]4C=C[C@@H](CO)O4)c(=O)[nH]c3=O)ccc12	Nevirapine-resistant		RT activity	0.18 µM
C[C@H]1[C@H](C)Oc2c3c(c4c(-c5ccccc5)cc(=O)oc4c2[C@H]1O)OC(C)(C)C=C3			cytopathic effect / MTT	0.62 µM
O=c1[nH]cnc2c1ncn2[C@H]1C=CC[C@@H](CO)C1	RF		cytopathic effect / XTT	>50 µg/mL
O=S1(=O)CCCCS1	RF		XTT	>5.7 µM
Cc1cn([C@H]2O[C@@H](CO)C[C@@H]2O)c(=O)[nH]c1=O			cytopathic effect / MTT	>100 µM
CC(=O)O[C@@H]1CSS(=O)C[C@H]1OC(C)=O	RF		XTT	>22 µM
CCCc1cc(=O)oc2c3c(c4c(c12)OC(C)(C)C=C4)O[C@H](C)[C@@H](C)C3=O			cytopathic effect / MTT	0.68 µM
CC(C)=CCOc1cc(NC(=S)c2ccsc2C)ccc1Cl	RF		p24	0.004 µM
Cc1nc(CCCCCCC(=O)c2ccccc2)n2nc(NCCCCCCCCCCCCN)ccc12	LAI		RT activity	7.2 µM
Nc1nc2c(nnn2[C@H]2C=CC[C@@H](CO)C2)c(=O)[nH]1	RF		cytopathic effect / XTT	>50 µg/mL
C=C1C[C@@]23CC[C@@H]4C(C)(C)[C@H](O)C(=O)C[C@@]4(C)[C@@H]2C[C@@H]1CC3=O	RF		cytopathic effect / XTT	6 µg/mL
CCCc1cc(=O)oc2c3c(c4c(c12)OC(C)(C)C=C4)O[C@@H](C)[C@H](C)[C@@H]3O			cytopathic effect / MTT	0.18 µM
O=S(=O)(Cc1ccc(CS(O)(O)c2ccc[n+]([O-])c2)cc1)c1cccc[n+]1[O-]	IIIB		syncytia	≥20 µg/mL
CCc1c(C)[nH]c(=O)c2c1Sc1ccccc1C(C#N)N2	LAI		RT activity	0.002 µM
Nc1nc2c(ncn2C[C@@H](CO)OCP(=O)(O)O)c(=O)[nH]1	LAV-Bru		cytopathic effect / XTT	>500 µM
CC(=O)O[C@H]1CSS(=O)(=O)C[C@H]1OC(C)=O	RF		XTT	>9.2 µM
c1ccc(C2SCc3nc4cc5ccccc5cc4n32)cc1	RF			>200 µM
CCCCCCCCCCCCOC(CNC(=O)CCCCCCCCCCC)COP(=O)([O-])OCC[N+](C)(C)C			plaque count / syncytia	0.11 µM
CCOC(=O)c1sc(C(=O)O)cc1-c1cccs1	RF		cytopathic effect / XTT	132 µM
CCN1CC(C)Cn2c(=S)[nH]c3cc(Br)cc1c32				5.18 µM
CCCCCCCCCCCCCCCC(=O)Nc1ccn([C@H]2CC[C@@H](COP(=O)(O)O[C@H]3C[C@H](n4cc(C)c(=O)[nH]c4=O)O[C@@H]3CO)O2)c(=O)n1	AZT-resistant (RT D67N K70R T215Y K219Q)	RT-D67N K70R T215Y K219Q	cytopathic effect / XTT	0.1306 µM
CC1=C(C(=O)Nc2cc(C(=O)OC(C)C)c(Cl)cc2F)SCCO1	IIIB		cytopathic effect / XTT	0.0035 µg/mL
Cc1cc(CS(=O)(=O)c2cccc[n+]2[O-])c(C)cc1CS(O)(O)c1ccc[n+]([O-])c1	IIIB		syncytia	10 µg/mL
Cc1nc(CCCCCCC(=O)c2ccccc2)n2nc(NCCCCCCNCc3cn([C@H]4C=C[C@@H](CO)O4)c(=O)[nH]c3=O)ccc12	LAI		RT activity	0.05 µM
CC(C)=CCOc1cc(NC(=S)c2ccoc2C)ccc1Cl	SK1		cytopathic effect / XTT	0.006 µM
[N-]=[N+]=N[C@@H]1C[C@@H](n2cc(F)c(N)nc2=O)O[C@H]1CO				0.3 µM
CSc1s[s+]c(SC)c1-c1ccccc1	RF		cytopathic effect / XTT	4.5 µM
CCC1CCCCN1CC(O)C1OC(C)(C)OC1c1cnn(-c2ccccc2)n1	RF		cytopathic effect / MTS	>100 µM
[N-]=[N+]=N[C@H]1C[C@H](CO)O[C@@H]1n1cc(F)c(N)nc1=O				7 µM

The last 5 rows once more:

| compound | strain or isolate | mutations | method | result |
|---|---|---|---|---|
| CC(C)=CCOc1cc(NC(=S)c2ccoc2C)ccc1Cl | SK1 |  | cytopathic effect / XTT | 0.006 µM |
| [N-]=[N+]=N[C@@H]1C[C@@H](n2cc(F)c(N)nc2=O)O[C@H]1CO |  |  |  | 0.3 µM |
| CSc1s[s+]c(SC)c1-c1ccccc1 | RF |  | cytopathic effect / XTT | 4.5 µM |
| CCC1CCCCN1CC(O)C1OC(C)(C)OC1c1cnn(-c2ccccc2)n1 | RF |  | cytopathic effect / MTS | >100 µM |
| [N-]=[N+]=N[C@H]1C[C@H](CO)O[C@@H]1n1cc(F)c(N)nc1=O |  |  |  | 7 µM |